Source: ChEMBL document CHEMBL1649232 (Antimicrob Agents Chemother, 2009)

What was measured:
[1] = test system: Influenza A virus; experiment: Ratio of IC50 for Influenza A virus A/New Caledonia/20/99 (H1N1)) harboring neuraminidase I222V mutant to IC50 for Influenza A virus A/New Caledonia/20/99 (H1N1)) harboring wild type neuraminidase
[2] = test system: Influenza A virus; experiment: Ratio of IC50 for Influenza A virus A/New Caledonia/20/99 (H1N1)) harboring neuraminidase I222M and H274Y mutant to IC50 for Influenza A virus A/New Caledonia/20/99 (H1N1)) harboring wild type neuraminidase
[3] = test system: Influenza A virus; experiment: Ratio of IC50 for Influenza A virus A/New Caledonia/20/99 (H1N1)) harboring neuraminidase I222M mutant to IC50 for Influenza A virus A/New Caledonia/20/99 (H1N1)) harboring wild type neuraminidase
[4] = test system: Influenza A virus; experiment: Ratio of IC50 for Influenza A virus A/New Caledonia/20/99 (H1N1)) harboring neuraminidase H274Y mutant to IC50 for Influenza A virus A/New Caledonia/20/99 (H1N1)) harboring wild type neuraminidase

## CCC(CC)[C@H](NC(C)=O)[C@@H]1[C@H](O)[C@@H](C(=O)O)C[C@H]1NC(=N)N [PERAMIVIR ANHYDROUS]
[1]
  Ratio IC50: 1
[2]
  Ratio IC50: 400
[3]
  Ratio IC50: 1
[4]
  Ratio IC50: 347
